Assay results published in paper PMC2515342 (PLoS Pathogens, 2008).

By UniProt entry, the sequences of proteins in these tests, tags left out. Residues count along the entry.
UniProt A0A6L8PY92, 27-152 limits assumed: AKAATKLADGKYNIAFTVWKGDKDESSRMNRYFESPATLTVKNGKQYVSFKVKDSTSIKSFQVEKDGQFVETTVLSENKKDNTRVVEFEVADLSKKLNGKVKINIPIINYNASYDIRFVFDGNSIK

Target: T1, IsdX1 (Bacillus anthracis, UniProt A0A6L8PY92)
T1 construct: gene GBAA_4788
Assay: biochemical

C=CC1=C(C)C2=Cc3c(C=C)c(C)c4[n]3[Fe]([Cl])[n]3c(c(C)c(CCC(=O)O)c3=CC3=NC(=C4)C(C)=C3CCC(=O)O)=CC1=N2 [hemin chloride]
Kd: 5.4 µM
